Values of other authors as cited in patent US20260382601A1, “USE OF CYP3A4/5 INDUCERS IN TREATING OR ALLEVIATING PERIPHERAL NEUROPATHY” (published 2026).

Key:
CYP3A4/5 = settings: role: inhibitor; human liver microsomes
P-glycoprotein (P-gp) = settings: in vitro

CC[C@H](C)[C@@H]([C@@H](CC(=O)N1CCC[C@H]1[C@H](OC)[C@@H](C)C(=O)N[C@H](C)[C@@H](O)c1ccccc1)OC)N(C)C(=O)[C@@H](NC(=O)[C@@H](NC)C(C)C)C(C)C
inhibitory activity on CYP3A4/5 and other CYP450 isoforms (CYP3A4/5): inhibitory activity on CYP3A4/5 but not on other CYP450 isoforms
P-gp substrate / inhibitor status (P-glycoprotein (P-gp)): a substrate, but not an inhibitor, of P-glycoprotein (P-gp)
reduction of exposure amount of MMAE (CYP3A; Adcetris in combination with rifampicin (CYP3A inducer), literature 17, 18): approximately 46%
reduction of exposure amount of MMAE (CYP3A; brentuximab vedotin with rifampicin, literature 19): approximately 46%

Like-named read-outs stand apart in the source and are kept apart here.
